Data source: PubChem BioAssay AID504761 (Drosophila RNAi Screening Center, 2011)
The deposit covers about 22,000 reagents; shown is an unselected part of those with a known target gene and a result. Over the whole deposit, 116 (0.52%) got an active call. 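Calls depend on retest data that are not deposited; infection was ranked per plate without normalising between plates; the unit of the infection score is not given.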 Raw values vary from plate to plate and are shown uncorrected. The record does not give: the amount of reagent, the time to read-out.

- Purpose: 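Fly genes whose silencing reduces dengue virus type 2 infection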 (primary screen)
- System: D.Mel-2 cells from Drosophila
- Knock-down reagent: long dsRNA against Drosophila genes
- Challenge: infection with dengue virus type 2; dose and infection time not stated
- Measured: 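Per well on two replicate plates, imaging gave the percent of cells positive for viral envelope protein, ranked by infection, and a nuclear count of cells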
- Scale: infection score: higher = more virus-infected cells; cell count: higher = more cells in the well
- Active means: 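Low infection ranks in the two replicates (chance level up to 0.065) followed by a retest with a 1.5-fold or larger significant decrease, p below 0.05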
- Meaning of the calls: active = confirmed: knock-down lowers infection; inactive = not picked or not confirmed

target gene | DRSC id | infection score, replicate 1 | infection score, replicate 2 | cell count, replicate 1 | cell count, replicate 2 | call
CenB1A (GeneID 42735) | DRSC16923 | 1.64 | 23.2 | 6417 | 5641 | inactive
CenB1A (GeneID 42735) | DRSC28028 | 14.8 | 21.9 | 3979 | 1896 | inactive
fidipidine (GeneID 36808) | DRSC07618 | 10.8 | 15.3 | 2347 | 3103 | inactive
fidipidine (GeneID 36808) | DRSC25394 | 1.52 | 2.82 | 6135 | 6240 | inactive
CG34129 (GeneID 43181) | DRSC15960 | 1.19 | 4.13 | 6390 | 6173 | inactive
Fbw5 (GeneID 33854) | DRSC03146 | 11.2 | 2.2 | 5754 | 6143 | inactive
Fbw5 (GeneID 33854) | DRSC29431 | 7.29 | – | 1838 | 441 | inactive
Gbeta13F (GeneID 32544) | DRSC20247 | 5.07 | 2 | 5778 | 5886 | inactive
CG9692 (GeneID 39865) | DRSC11091 | 2.56 | 3.09 | 6183 | 6510 | inactive
CG15756 (GeneID 32308) | DRSC19721 | 4.01 | 6.35 | 5979 | 6428 | inactive
CG15756 (GeneID 32308) | DRSC24288 | 4.01 | 2.45 | 7013 | 6609 | inactive
Gagr (GeneID 39824) | DRSC10441 | 9.1 | 4.86 | 6459 | 6932 | inactive
prc (GeneID 43930) | DRSC11385 | 1.34 | 2.56 | 6404 | 6785 | inactive
nero (GeneID 43740) | DRSC15432 | 2.99 | 1.4 | 6063 | 6839 | inactive
shep (GeneID 38605) | DRSC09765 | 8.35 | 9.51 | 6325 | 5597 | inactive
shep (GeneID 38605) | DRSC09771 | 5.72 | 4.51 | 7058 | 7159 | inactive
shep (GeneID 38605) | DRSC26847 | 3.95 | 3 | 6588 | 6376 | inactive
CG12942 (GeneID 36158) | DRSC06253 | 2.63 | 2.07 | 6124 | 6434 | active
CG12942 (GeneID 36158) | DRSC25987 | 4.73 | 6.19 | 6492 | 6466 | inactive
Jhbp11 (GeneID 43263) | DRSC15183 | 2.79 | 12.2 | 6526 | 4605 | inactive
Jhbp11 (GeneID 43263) | DRSC29679 | – | – | – | 406 | inactive
SerRS (GeneID 33518) | DRSC00496 | 2.3 | 1.6 | 6119 | 6503 | inactive
ttm50 (GeneID 31266) | DRSC18587 | 3.71 | 12.4 | 6096 | 6421 | inactive
Osi11 (GeneID 40765) | DRSC12282 | 8.19 | 4.99 | 6142 | 6354 | inactive
CG2701 (GeneID 31261) | DRSC18590 | 2.83 | 8.05 | 6567 | 6917 | inactive
bif (GeneID 32119) | DRSC18901 | 1 | 2.55 | 6210 | 5806 | inactive
bif (GeneID 32119) | DRSC20313 | 3.09 | 0.53 | 6658 | 6768 | inactive
bif (GeneID 32119) | DRSC28382 | 13.7 | 6.36 | 5420 | 4138 | inactive
CG7600 (GeneID 39267) | DRSC09681 | 9 | 2.35 | 6545 | 6899 | inactive
CG7600 (GeneID 39267) | DRSC25328 | 2.86 | 3.31 | 6851 | 6679 | inactive
CG7202 (GeneID 40376) | DRSC11818 | 28.3 | 18.3 | 6617 | 5931 | inactive
CG7202 (GeneID 40376) | DRSC25884 | 1.04 | 3.39 | 5950 | 6218 | inactive
EloC (GeneID 37237) | DRSC07423 | 1.21 | 1.93 | 6466 | 6316 | inactive
EloC (GeneID 37237) | DRSC29393 | 4.72 | 3.34 | 635 | 628 | inactive
Rab3-GAP (GeneID 34626) | DRSC02001 | 13.6 | 21.7 | 6523 | 6291 | inactive
Rab3-GAP (GeneID 34626) | DRSC28519 | 16.5 | 3.3 | 5715 | 848 | inactive
Ttd14 (GeneID 37119) | DRSC06632 | 10.4 | 3.1 | 6555 | 6591 | inactive
Ttd14 (GeneID 37119) | DRSC06942 | 10.2 | 6.04 | 6397 | 596 | inactive
His4r (GeneID 41773) | DRSC16703 | 1.49 | 6.29 | 5588 | 5847 | inactive
His4r (GeneID 41773) | DRSC27569 | 18.5 | 10.2 | 5826 | 5880 | inactive
CG15643 (GeneID 32489) | DRSC19679 | 7.08 | 4.13 | 6273 | 5837 | inactive
CG15643 (GeneID 32489) | DRSC27051 | 2.28 | 3.46 | 6228 | 6798 | inactive
CG13488 (GeneID 37496) | DRSC04133 | 1.64 | 3.1 | 6691 | 6797 | inactive
mip120 (GeneID 36499) | DRSC06960 | – | 2.5 | 398 | 839 | inactive
mip120 (GeneID 36499) | DRSC29182 | 30.6 | 29.6 | 4163 | 4252 | inactive
ab (GeneID 34560) | DRSC23179 | 3.45 | 10.3 | 5649 | 5832 | inactive
stj (GeneID 36526) | DRSC06124 | 16.7 | 10.1 | 5582 | 6448 | inactive
CG2540 (GeneID 32216) | DRSC19856 | 5.81 | 22 | 6810 | 6465 | inactive
Ugt35B1 (GeneID 41333) | DRSC16893 | 13.7 | 12.8 | 6551 | 6567 | inactive
Ugt35B1 (GeneID 41333) | DRSC27518 | 8.06 | 5.64 | 6747 | 6634 | inactive
tpr (GeneID 37486) | DRSC04468 | 8.86 | 29.7 | 6229 | 5482 | inactive
tpr (GeneID 37486) | DRSC28107 | 7.73 | 22.4 | 5977 | 6594 | inactive
CG17650 (GeneID 33358) | DRSC00510 | 2.35 | 3.28 | 6736 | 6974 | inactive
bic (GeneID 45827) | DRSC07584 | 15.5 | 11.2 | 5906 | 5923 | inactive
bic (GeneID 45827) | DRSC25656 | 3.28 | 7.57 | 6218 | 5984 | inactive
CG7213 (GeneID 38924) | DRSC10787 | 2.62 | 4.24 | 5953 | 5824 | inactive
CG3081 (GeneID 31395) | DRSC18571 | – | 0.63 | 442 | 636 | inactive
lva (GeneID 31350) | DRSC18403 | 15.9 | 20.3 | 6559 | 6549 | inactive
lva (GeneID 31350) | DRSC27594 | 5.57 | 6.56 | 6530 | 6232 | inactive
xmas (GeneID 44271) | DRSC21306 | 16 | 9.11 | 5477 | 4753 | inactive
xmas (GeneID 44271) | DRSC22178 | 8.68 | 1.95 | 5645 | 6349 | inactive
Mrgn1 (GeneID 32330) | DRSC20223 | 5.93 | 15.4 | 7017 | 7098 | inactive
Pvr (GeneID 34127) | DRSC03080 | 12.8 | 1.86 | 4789 | 5208 | inactive
Gpo3 (GeneID 34776) | DRSC01978 | 24.1 | 13.7 | 4680 | 2863 | inactive
mys (GeneID 44885) | DRSC18799 | 1.09 | 3.23 | 6436 | 6285 | inactive
mys (GeneID 44885) | DRSC29061 | 17.9 | 7.25 | 5704 | 1958 | inactive
CG32379 (GeneID 326211) | DRSC10318 | 1.95 | 2.68 | 6349 | 6306 | inactive
Elp3 (GeneID 33649) | DRSC00448 | 4 | 14.4 | 6821 | 5814 | inactive
Uxs (GeneID 38911) | DRSC10941 | 6.49 | 4.09 | 6537 | 6648 | inactive
Uxs (GeneID 38911) | DRSC28512 | 5.76 | 11.6 | 5033 | 4050 | inactive
Grip71 (GeneID 35130) | DRSC02042 | 0.68 | 2.67 | 586 | 7014 | inactive
upd2 (GeneID 32805) | DRSC19969 | 1.92 | 2.56 | 6617 | 6960 | inactive
upd2 (GeneID 32805) | DRSC24190 | 6.72 | 2.39 | 5747 | 5783 | inactive
Vap33 (GeneID 31349) | DRSC18384 | 0.43 | 12.2 | 230 | 6381 | inactive

A stretch of the results above, for reference:
target gene | DRSC id | infection score, replicate 1 | infection score, replicate 2 | cell count, replicate 1 | cell count, replicate 2 | call
mip120 (GeneID 36499) | DRSC29182 | 30.6 | 29.6 | 4163 | 4252 | inactive
ab (GeneID 34560) | DRSC23179 | 3.45 | 10.3 | 5649 | 5832 | inactive
stj (GeneID 36526) | DRSC06124 | 16.7 | 10.1 | 5582 | 6448 | inactive
CG2540 (GeneID 32216) | DRSC19856 | 5.81 | 22 | 6810 | 6465 | inactive
Ugt35B1 (GeneID 41333) | DRSC16893 | 13.7 | 12.8 | 6551 | 6567 | inactive
Ugt35B1 (GeneID 41333) | DRSC27518 | 8.06 | 5.64 | 6747 | 6634 | inactive
tpr (GeneID 37486) | DRSC04468 | 8.86 | 29.7 | 6229 | 5482 | inactive
tpr (GeneID 37486) | DRSC28107 | 7.73 | 22.4 | 5977 | 6594 | inactive
CG17650 (GeneID 33358) | DRSC00510 | 2.35 | 3.28 | 6736 | 6974 | inactive
bic (GeneID 45827) | DRSC07584 | 15.5 | 11.2 | 5906 | 5923 | inactive
bic (GeneID 45827) | DRSC25656 | 3.28 | 7.57 | 6218 | 5984 | inactive
CG7213 (GeneID 38924) | DRSC10787 | 2.62 | 4.24 | 5953 | 5824 | inactive
